PubChem BioAssay AID624099 | ICCB-Longwood | 2012

- Purpose: 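Human genes that papillomavirus E2 requires to repress the HPV18 LCR promoter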 (primary screen)
- Cells: human C33A cervical carcinoma cells (HPV-negative) stably expressing BPV1 E2 and an HPV18 LCR luciferase reporter
- Reagents: siRNA pool against human genes, 40 nM
- Time to read-out: 72 h
- Measurement: 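Per-well luciferase luminescence, z-scored on each plate against the plate mean and SD with control wells left out, then averaged across three replicate plates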
- Reading the numbers: mean z-score and z-score: higher = stronger reporter signal, weaker E2 silencing
- Rule for the call: 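Mean z ≥ 2 together with z ≥ 2 in two or more of the three replicates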
The deposit covers about 21,000 reagents; shown is a part drawn at random. 497 of them (2.4%) were called active. 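Higher z means weaker E2 silencing; only reporter increases were scored, and knock-downs that hurt cell survival may mask genuine repressor factors.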 Reagents against one gene are numbered here.

gene | pool no. | mean z-score | z-score, replicate A | z-score, replicate B | z-score, replicate C | outcome
AK8 | 1 | -0.13 | -0.07 | 0 | -0.32 | inactive
POLR2A | 1 | -4.25 | -4.08 | -4.34 | -4.33 | inactive
JARID2 | 1 | -0.55 | -0.49 | -0.34 | -0.81 | inactive
ANGPT1 | 1 | 0.21 | 0.3 | 0.18 | 0.16 | inactive
HTR3B | 1 | 0.57 | 0.7 | 0.6 | 0.4 | inactive
TMC6 | 1 | -1.83 | -1.71 | -1.87 | -1.91 | inactive
EDEM3 | 1 | 0.22 | -0.08 | 0.6 | 0.14 | inactive
GLIS3 | 1 | -0.78 | -0.79 | -0.6 | -0.95 | inactive
UQCRC2 | 1 | 0.32 | 0.56 | 0.54 | -0.13 | inactive
PATL1 | 1 | 0.07 | 0.19 | -0.05 | 0.08 | inactive
LOC401363 (retired record) | 1 | -0.2 | -0.15 | -0.26 | -0.21 | inactive
GPSM1 | 1 | -1.45 | -1.79 | -1.03 | -1.52 | inactive
NDUFAF4 | 1 | -0.32 | -0.3 | -0.17 | -0.48 | inactive
GPR152 | 1 | 1.23 | 1.14 | 1.26 | 1.3 | inactive
CACTIN | 1 | -0.19 | -0.11 | -0.48 | 0.02 | inactive
SSX5 | 1 | -0.01 | 0.13 | 0.04 | -0.19 | inactive
DSCR4 | 1 | 2.79 | 2.67 | 2.68 | 3.02 | active
TRIM52 | 1 | -0.83 | -0.46 | -1.09 | -0.93 | inactive
GLB1L | 1 | 1.81 | 1.48 | 1.72 | 2.22 | inactive
LOC401254 (retired record) | 1 | 1.09 | 1.14 | 0.97 | 1.16 | inactive
MMAB | 1 | 0.42 | -0.11 | 0.64 | 0.72 | inactive
LOC387756 (retired record) | 1 | -0.65 | -0.55 | -0.79 | -0.6 | inactive
CEACAM6 | 1 | -1.76 | -1.68 | -1.83 | -1.76 | inactive
NPFFR1 | 1 | -1.44 | -1.51 | -1.31 | -1.5 | inactive

Look-ups from the list:
SSX5, z-score, replicate A: 0.13
HTR3B, outcome: inactive
LOC401363 (retired record), z-score, replicate C: -0.21
GLIS3, mean z-score = -0.78
For “z-score, replicate B”, CACTIN shows -0.48
For “z-score, replicate B”, TMC6 is entered as -1.87

Additional results follow.
gene | pool no. | mean z-score | z-score, replicate A | z-score, replicate B | z-score, replicate C | outcome
MRPS31 | 1 | 0.94 | 1.15 | 0.85 | 0.83 | inactive
SLC7A10 | 1 | -1.01 | -1.22 | -1.07 | -0.73 | inactive
PUSL1 | 1 | -0.72 | -1.09 | -0.7 | -0.36 | inactive
OFCC1 | 1 | 1.33 | 1.63 | 1.16 | 1.2 | inactive
CRIP3 | 1 | 0.23 | 0.38 | 0.11 | 0.19 | inactive
ST7 | 1 | 0.46 | 0.57 | 0.38 | 0.42 | inactive
KRTAP19-6 | 1 | -1.48 | -1.29 | -1.68 | -1.47 | inactive
TAF12 | 1 | -0.49 | -0.62 | -0.25 | -0.59 | inactive
LOC392582 (retired record) | 1 | -0.96 | -1.05 | -1.02 | -0.8 | inactive
LOC388227 (retired record) | 1 | -0.78 | -0.94 | -0.84 | -0.56 | inactive
TXNDC16 | 1 | 1.2 | 1.04 | 1.25 | 1.31 | inactive
SLC35D4 | 1 | 0.73 | 0.66 | 0.93 | 0.61 | inactive
CSNK2B | 1 | 1.95 | 2.04 | 2.48 | 1.33 | inactive
NTN1 | 1 | 0.28 | 0.39 | 0.09 | 0.36 | inactive
DSG3 | 1 | 0.01 | 0.51 | -0.12 | -0.37 | inactive
PRKCSH | 1 | -0.35 | -0.44 | -0.37 | -0.23 | inactive
RAP1B | 1 | -0.27 | -0.29 | 0.02 | -0.54 | inactive
ANKRD17 | 1 | 1.25 | 1.22 | 1.48 | 1.04 | inactive
AGMO | 1 | -0.26 | 0 | -0.38 | -0.38 | inactive
KCTD8 | 1 | 0.44 | 0.03 | 0.45 | 0.86 | inactive
SETMAR | 1 | -1.19 | -1.17 | -1.07 | -1.33 | inactive
HMGB1 | 1 | 0.38 | 0.68 | 0.35 | 0.11 | inactive
TFAP2E | 1 | -1.03 | -0.81 | -1.02 | -1.27 | inactive
TMEM263 | 1 | -0.28 | -0.46 | -0.47 | 0.08 | inactive
TCEAL4 | 1 | -0.59 | -0.77 | -0.74 | -0.27 | inactive
AGAP1 | 1 | 0.35 | 0.26 | 0.2 | 0.59 | inactive
NDUFA10 | 1 | -1.21 | -1.01 | -1.29 | -1.35 | inactive
PCDHGA6 | 1 | -1.31 | -1.68 | -1.31 | -0.93 | inactive
CCDC30 | 1 | 0.39 | 0.8 | 0.02 | 0.34 | inactive
STAT2 | 1 | -0.13 | 0.08 | -0.1 | -0.37 | inactive
PPIE | 1 | 1.04 | 1.07 | 1.01 | 1.04 | inactive
IL22RA1 | 1 | -1.41 | -1.65 | -1.25 | -1.32 | inactive
ULK4 | 1 | -0.06 | 0.33 | -0.5 | 0 | inactive
ULK4 | 2 | 0.4 | 0.57 | 0.18 | 0.46 | inactive
ST13P7 | 1 | -0.56 | -0.7 | -0.19 | -0.8 | inactive
EPAS1 | 1 | -0.3 | -0.3 | -0.27 | -0.34 | inactive
S100A6 | 1 | -0.26 | -0.12 | -0.42 | -0.25 | inactive
CLNK | 1 | 0.79 | 0.67 | 0.5 | 1.19 | inactive
SNRPA | 1 | 1 | 1.08 | 0.63 | 1.3 | inactive
KDELR3 | 1 | -0.6 | -0.56 | -0.6 | -0.65 | inactive
RHO | 1 | 0.13 | 0.47 | -0.07 | -0.02 | inactive
B4GALT3 | 1 | -0.98 | -1.04 | -0.9 | -1 | inactive
LINC01376 | 1 | 1.45 | 1.64 | 1.42 | 1.28 | inactive
ZNG1B | 1 | -0.17 | -0.38 | -0.15 | 0.03 | inactive
RFPL3 | 1 | 0.15 | 0.54 | -0.29 | 0.21 | inactive
TUBB2B | 1 | -1.44 | -1.41 | -1.38 | -1.52 | inactive
DDX25 | 1 | -1.02 | -0.58 | -1.15 | -1.33 | inactive
NUDT5 | 1 | 0.31 | 0.49 | 0.13 | 0.32 | inactive
GGCX | 1 | 1.27 | 1.76 | 1.18 | 0.86 | inactive
